{"source": "patent US20110046044", "proteins": {"B1": {"name": "unnamed (protein)", "chain": "NSPYVSNYDDVLKKYKPADAVVDNEKYDWREHNAVSEIKNQNLCGSCWAFGAVGAVESQYAIRKNQHVLISEQELVDCSDKNFGCFGGLASLAFDDMIDLGYLCSESDYPYVGFKPRKCEIKKCKEKYTIKSYVKIPEEKYKEAIQFLGPLTLGLTVNDDFYDYKEGIFSSECTEEPNHEVMIVGYGVEEMFNSESNASEKHYYYIIKNSWGENWGEKGFMRIETDELGLQKTNNMTEAYVPLLD"}}, "key": {"[1]": {"target": "human erythrocyte spectrin, P02549"}, "[2]": {"target": "native human hemoglobin (Sigma-Aldrich), P69905"}}, "data": [{"protein": "B1", "values": [{"measurement": "degradation in erythrocyte ghosts, western blot", "setting": "[1]", "result": "the low activity with spectrin"}, {"measurement": "hemoglobin degradation, pH-dependent and time-lapse analyses", "setting": "[2]", "result": "the hemoglobinolytic activity of VX-4 was relatively weak"}]}]}
